{"source": "patent US20180002366A1", "about": "“4'-SUBSTITUTED NUCLEOSIDE REVERSE TRANSCRIPTASE INHIBITORS” (MERCK SHARP & DOHME CORP., priority 2014, published 2018)", "tested_on": "HIV-1 (H9IIIB virus) replication in MT4-GFP cells", "experiment": "Antiviral Persistence assay", "conditions": "ratio of IC50 72 h to IC50 24 h", "description": "HIV-1 replication was monitored using MT4-gag-GFP clone D3 (hereafter designate MT4-GFP), which are MT-4 cells modified to harbor a GFP reporter gene, the expression of which is dependent on the HIV-1 expressed proteins tat and rev. Productive infection of an MT4-GFP cell with HIV-1 results in GFP expression approximately 24 h post-infection. MT4-GFP cells were maintained at 37° C./5% CO2/90% relative humidity in RPMI 1640 supplemented with 10% fetal bovine serum, 100 U/mL penicillin/streptomycin, and 400 μg/mL G418 to maintain the reporter gene. For 72 hour time point persistence assay (72 h plate) and 24 hour time point control assay (24 h plate), MT4-GFP cells were washed and re-suspended in RPMI 1640 containing 10% normal human serum at either 1.6×10^5 or 2.4×10^5 cells/mL (10% NHS). Compound plates were prepared by dispensing compounds dissolved in DMSO into wells of 384 well cell culture plates ([…]) using an ECHO acoustic dispenser. Each compound was tested in a 10 point serial 3-fold dilution (typical final concentrations: 4.2 μM-0.21 nM). […]\nInfected cells were quantified at ˜24 h post-infection, by counting the number of green cells in each well using an Acumen eX3 scanner. IC50s for the compounds in Table 4 were determined by non-linear 4-parameter curve fitting. […]", "data": [{"substance": "(2R,3S,5R)-5-(4-aminopyrrolo[2,1-f][1,2,4]triazin-7-yl)-3-hydroxy-2-(hydroxymethyl)tetrahydrofuran-2-carbonitrile [Example 12]", "values": [{"measurement": "Fold shift IC50 72 h/24 h", "result": 28}]}]}
